Measured values from several laboratories, pooled; numbers as filed in NIAID ChemDB.

Shared fields: tests on isolated targets; agent: HIV-1; protein: Reverse transcriptase; read-out: IC50

a–b is a range or a potency band. An empty or dashed field is not shown. ICn is the concentration giving n% inhibition. Neighbouring rows are from separate reports.

structure	strain	changes	read by	result
Cc1cc(C2CC2)cc(Cl)c1-n1c(Br)nnc1SCC(=O)Nc1ccc(C(=O)O)cc1Cl			nucleotide incorporation / radiometric	<0.05 µM
O=C(OC1OC2COC(=O)c3cc(O)c(O)c(O)c3-c3c(cc(O)c(O)c3O)C(=O)OC2C(OC(=O)c2cc(O)c(O)c(O)c2)C1OC(=O)c1cc(O)c(O)c(O)c1)c1cc(O)c(O)c(O)c1			nucleotide incorporation	>20 µg/mL
Cc1cc(C2CC2)ccc1-n1c(Br)nnc1SCC(=O)Nc1ccc(S(N)(=O)=O)cc1Cl		RT-Y181C	nucleotide incorporation / radiometric	<0.05 µM
CCN1c2ncc(CCOc3ccc(C(=O)O)c4c3CCN(S(=O)(=O)N(C)C)C4)cc2C(=O)N(C)c2cccnc21	WT		nucleotide incorporation / radiometric	<0.1 µM
O=C(CSc1nnc(Br)n1-c1ccc(C2CCC2)c2ccccc12)Nc1ccc(C(=O)O)cc1Cl			nucleotide incorporation / radiometric	<0.05 µM
N#Cc1cc(Cl)cc(Oc2cc(OCC(=O)Nc3ccc(S(N)(=O)=O)cc3Cl)ccc2Cl)c1			nucleotide incorporation / radiometric	<20 µM
Cc1cc(S(N)(=O)=O)ccc1NC(=O)CSc1nnc(C(F)F)n1-c1cccc2c(C#N)cccc12		RT-Y188L	nucleotide incorporation / radiometric	>0.1 µM
N#Cc1cc(Cl)cc(Oc2cc(Cl)cc(OCc3[nH]nc4ccccc34)c2)c1			nucleotide incorporation / radiometric	<20 µM
CCc1ccc(-n2c(Br)nnc2SCC(=O)Nc2ccc(C(=O)N3CCC(CN)CC3)cc2Cl)c2ccccc12		RT-Y181C	nucleotide incorporation / radiometric	<0.05 µM
CCN1c2ncc(CCOc3ccc(-c4csc(N)n4)cc3C)cc2C(=O)N(C)c2cccnc21	IIIB	RT-K103N Y181C	nucleotide incorporation / radiometric	<0.05 µM
CCN1c2ncc(CCOc3ccc(NS(C)(=O)=O)c4ccccc34)cc2C(=O)N(C)c2ccc(F)nc21		RT-Y188L	nucleotide incorporation / radiometric	0.1–1 µM
COc1cccc(CC(=O)Nc2ccc(NC(=O)CSc3nnnn3-c3ccc(C(C)(C)C)cc3Cl)c(Cl)c2)c1	WT		PicoGreen / fluorescence	<1 µM
CCc1ccc(-n2c(CF)nnc2SCC(=O)Nc2ccc(S(=O)(=O)NC)cc2Cl)c2ccccc12			nucleotide incorporation / radiometric	0.05–0.1 µM
CCOCn1c(Sc2ccccc2)c(CC)c(=O)[nH]c1=O		RT-Y181I	nucleotide incorporation	4.7 µM
O=C(COc1ccc(NC(=O)CSc2nnnn2-c2ccc(C3CC3)cc2Cl)c(Cl)c1)NCc1cccnc1		RT-K103 Y181C	PicoGreen / fluorescence	<1 µM
CC(C)[C@H](NC(=O)c1ccc(NC(=O)CSc2nnc(Br)n2-c2ccc(C3CC3)c3ccccc23)c(Cl)c1)C(=O)O			nucleotide incorporation / radiometric	0.05–0.1 µM
CC(C)(C)c1ccc(-n2nnnc2SCC(=O)Nc2ccc(-c3ccc(/C=C/C(=O)O)cc3)cc2Cl)c(Cl)c1	WT		PicoGreen / fluorescence	<1 µM
CCCc1ccc(-n2c(Br)nnc2SCC(=O)Nc2ccc(S(N)(=O)=O)cc2Cl)c2ccccc12		RT-Y188L	nucleotide incorporation / radiometric	>0.1 µM
CC(C)(C#Cc1ccc(NC(=O)CSc2nnnn2-c2cc(C3CC3)cc(C(F)(F)F)c2Cl)c(Cl)c1F)NC(=O)c1ccc[n+]([O-])c1	WT		PicoGreen / fluorescence	<1 µM
Cc1cc(S(N)(=O)=O)ccc1NC(=O)CSc1nnc(C)n1-c1ccc(C)c2c1CCCC2		RT-Y181C	nucleotide incorporation / radiometric	>0.1 µM
N#Cc1cc(Cl)cc(Oc2cc(Cl)cc(OCC(=O)Nc3ccc4[nH]cnc4c3Cl)c2)c1			nucleotide incorporation / radiometric	<20 µM
CNCCOC(=O)COC(C)(C)C#Cc1ccc(NC(=O)CSc2nnnn2-c2ccc(C(C)(C)C)cc2Cl)c(Cl)c1	WT		PicoGreen / fluorescence	<1 µM
CCN1c2ncc(CCOc3ccc(-c4cscn4)cc3)cc2C(=O)N(C)c2cccnc21	IIIB		nucleotide incorporation / radiometric	<0.05 µM
Cc1cc(C2CC2)c2ccccc2c1-n1c(Br)nnc1SCC(=O)Nc1ccc(S(=O)(=O)O)cc1Cl		RT-Y181C	nucleotide incorporation / radiometric	<0.05 µM
CCc1cc(CCc2nc3ccccc3o2)c(=O)[nH]c1C		RT-Y181I	nucleotide incorporation	>296.4 µM
CC(C)(C)c1ccc(-n2nnnc2SCC(=O)Nc2ccc(C#CCN3CCCC3)cc2Cl)c(Cl)c1		RT-K103 Y181C	PicoGreen / fluorescence	<1 µM
O=C(OCC1O[C@@H](O)C(O)(COC(=O)c2cc(O)c(O)c(O)c2)C1O)c1cc(O)c(O)c(O)c1			nucleotide incorporation	>20 µg/mL
O=C(CSc1nnnn1-c1ccc(C2CC2)cc1Cl)Nc1ccc(-c2ccc(OCCN3CCCCC3)cc2)cc1Cl		RT-K103 Y181C	PicoGreen / fluorescence	<1 µM
CCOC(=O)C(C)NS(=O)(=O)c1ccc(NC(=O)CSc2nnc(C(F)F)n2-c2ccc(C)c3c2CCCC3)c(Cl)c1		RT-Y181C	nucleotide incorporation / radiometric	>0.1 µM
CCN1c2ncc(CCOc3ccc(-c4csc(C(=O)O)c4)cc3C)cc2C(=O)N(C)c2cccnc21	IIIB		nucleotide incorporation / radiometric	<0.05 µM
O=C(OC1[C@H](OC(=O)c2cc(O)c(O)c(O)c2)CC(OC(=O)c2cc(O)c(O)c(O)c2)(C(=O)O)C[C@H]1OC(=O)c1cc(O)c(O)c(O)c1)c1cc(O)c(O)c(O)c1			nucleotide incorporation	<30 µM
CCN1c2ncc(CCOc3ccc(C(=O)O)c4ccccc34)cc2C(=O)N(C)c2ccc(F)nc21		RT-V106A	nucleotide incorporation / radiometric	>1 µM
Cc1ccc(-n2c(C)nnc2SCC(=O)Nc2ccc(S(N)(=O)=O)cc2Cl)c2c1CCCC2			nucleotide incorporation / radiometric	<0.05 µM
CCN1c2ncc(CCOc3ccc(-c4ccc(C(=O)O)cc4)cc3C)cc2C(=O)N(C)c2cccnc21	IIIB		nucleotide incorporation / radiometric	<0.05 µM
O=C(CSc1nnc(Br)n1-c1ccc(C2CC2)cc1OC(F)(F)F)Nc1ccc(S(=O)(=O)O)cc1Cl			nucleotide incorporation / radiometric	<0.05 µM
CC(C)(C#Cc1ccc(NC(=O)CSc2nnnn2-c2ccc(C3(C)CC3)cc2Cl)c(Cl)c1)C(=O)O		RT-K103 Y181C	PicoGreen / fluorescence	<1 µM
Cc1cc(S(N)(=O)=O)ccc1NC(=O)CSc1nnc(Br)n1-c1ccc(C2CC2)c2ccccc12			nucleotide incorporation / radiometric	<0.05 µM
CC(C)(C)c1ccc(-n2nnnc2SCC(=O)Nc2ccc(NC(=O)C3CCCC3)cc2Cl)c(Cl)c1	WT		PicoGreen / fluorescence	<1 µM
O=C(OC[C@H]1O[C@@H](OC(=O)c2cc(O)c(O)c(O)c2)[C@H](OC(=O)c2cc(O)c(O)c(O)c2)[C@@H](OC(=O)c2cc(O)c(O)c(O)c2)[C@@H]1OC(=O)c1cc(O)c(O)c(O)c1Oc1cc2c(c(O)c1O)-c1c(cc(O)c(O)c1O)C(=O)OC[C@H]1O[C@@H](OC(=O)c3cc(O)c(O)c(O)c3)[C@H](OC(=O)c3cc(O)c(O)c(O)c3)[C@@H](OC(=O)c3cc(O)c(O)c(O)c3)[C@@H]1OC2=O)c1cc(O)c(O)c(O)c1			nucleotide incorporation	>20 µg/mL
O=C(CSc1nnnn1-c1ccc(C2CC2)cc1Cl)Nc1ccc(-c2ccc(OCCN3CCS(=O)(=O)CC3)cc2)c(F)c1Cl	WT		PicoGreen / fluorescence	<1 µM
CCc1ccc(-n2c(Br)nnc2SCC(=O)Nc2ccc(C(=O)NCC(=O)O)cc2Cl)c2ccccc12		RT-Y181C	nucleotide incorporation / radiometric	<0.05 µM
COP(=O)(c1cc(C)cc(CCC#N)c1)c1c(C(N)=O)[nH]c2ccc(Cl)c(F)c12		Y181C/K103N	RT activity	1.411 µM
CC(C)(C#Cc1ccc(NC(=O)CSc2nnnn2-c2ccc(C3CC3)cc2Cl)c(Cl)c1)OCCN1CCCC1=O		RT-K103 Y181C	PicoGreen / fluorescence	<1 µM
CCN1c2ncc(CCOc3ccc(C(=O)O)c4c3CCC4)cc2C(=O)N(C)c2cccnc21	WT		nucleotide incorporation / radiometric	<0.1 µM
CC(C)(C)c1ccc(-n2nnnc2SCC(=O)Nc2ccc(S(=O)(=O)NCCO)cc2Cl)c(Cl)c1		RT-K103 Y181C	PicoGreen / fluorescence	<1 µM
Oc1cc(O)c2c(c1)O[C@H](c1ccc(O)c(O)c1)[C@H](O)C2c1c(O)cc(O)c2c1O[C@@]1(c3ccc(O)c(O)c3)Oc3cc(O)c4c(c3[C@@H]2[C@H]1O)O[C@H](c1ccc(O)c(O)c1)[C@H](O)C4			nucleotide incorporation	>20 µg/mL
CC(C)(C#Cc1ccc(NC(=O)CSc2nnnn2-c2cc(C(F)(F)F)ccc2Cl)c(Cl)c1)C(=O)O	WT		PicoGreen / fluorescence	<1 µM
CCc1ccc(-n2c(Br)nnc2SCC(=O)Nc2ccc(C(=O)O)cc2C)c2ccccc12		RT-Y181C	nucleotide incorporation / radiometric	0.05–0.1 µM
CC(C)(C)c1ccc(-n2nnnc2SCC(=O)Nc2ccc(NC(=O)Nc3ccc(C(=O)O)cc3)cc2Cl)c(Cl)c1		RT-K103 Y181C	PicoGreen / fluorescence	<1 µM
N#Cc1cc(Cl)cc(Oc2cc(Cl)cc(OCc3nc4ccccc4s3)c2)c1			nucleotide incorporation / radiometric	<20 µM
CC(C)(C)c1ccc(-n2nnnc2SCC(=O)Nc2ccc(-c3ccc(OCC(=O)O)cc3Cl)cc2Cl)c(Cl)c1	WT		PicoGreen / fluorescence	<1 µM
CC(C)c1ccc(-n2c(SCC(=O)Nc3ccc(S(N)(=O)=O)cc3Cl)nnc2C(F)F)c2ccccc12		RT-Y188L	nucleotide incorporation / radiometric	>0.1 µM
CC(C)(C(=O)O)c1ccc(-c2ccc(NC(=O)CSc3nnnn3-c3ccc(C4CC4)cc3Cl)c(Cl)c2)cc1		RT-K103 Y181C	PicoGreen / fluorescence	<1 µM
O=C(OC1[C@H](O)CC(OC(=O)c2cc(O)c(O)c(O)c2)(C(=O)O)C[C@H]1O)c1cc(O)c(O)c(O)c1			nucleotide incorporation	>20 µg/mL
CC(C)(C#Cc1ccc(NC(=O)CSc2nnnn2-c2cc(C3CC3)ccc2Cl)c(Cl)c1F)OCCN1CCNCC1		RT-K103 Y181C	PicoGreen / fluorescence	<1 µM
O=C(CSc1nnc(Br)n1-c1ccc(C2CC2)cc1C(F)(F)F)Nc1ccc(C(=O)O)cc1Cl		RT-Y188L	nucleotide incorporation / radiometric	>0.1 µM
CC(C)(C#Cc1ccc(NC(=O)CSc2nnnn2-c2cccc(Cl)c2Cl)c(Cl)c1)C(=O)O		RT-K103 Y181C	PicoGreen / fluorescence	<1 µM
Cc1cc(C)c2ccccc2c1-n1c(SCC(=O)Nc2ccc(S(N)(=O)=O)cc2Cl)nnc1C(F)(F)F		RT-Y188L	nucleotide incorporation / radiometric	>0.1 µM
CC(C)(C#Cc1ccc(NC(=O)CSc2nnnn2-c2ccc(C3CC3)cc2Cl)c(Cl)c1F)OCCO	WT		PicoGreen / fluorescence	<1 µM
CC1(C)CC[C@]2(C(=O)O[C@@H]3O[C@H](CO)[C@@H](O)[C@H](O)[C@H]3O)CC[C@]3(C)C(=CCC4[C@@]5(C)C[C@@H](O)[C@@H]6OC(=O)c7cc(O)c(O)c(O)c7-c7c(cc(O)c(O)c7O)C(=O)OC[C@@]6(CO)C5CC[C@]43C)C2C1			nucleotide incorporation	>20 µg/mL

The last 6 rows once more:

structure | strain | changes | read by | result
CC(C)(C#Cc1ccc(NC(=O)CSc2nnnn2-c2cc(C3CC3)ccc2Cl)c(Cl)c1F)OCCN1CCNCC1 |  | RT-K103 Y181C | PicoGreen / fluorescence | <1 µM
O=C(CSc1nnc(Br)n1-c1ccc(C2CC2)cc1C(F)(F)F)Nc1ccc(C(=O)O)cc1Cl |  | RT-Y188L | nucleotide incorporation / radiometric | >0.1 µM
CC(C)(C#Cc1ccc(NC(=O)CSc2nnnn2-c2cccc(Cl)c2Cl)c(Cl)c1)C(=O)O |  | RT-K103 Y181C | PicoGreen / fluorescence | <1 µM
Cc1cc(C)c2ccccc2c1-n1c(SCC(=O)Nc2ccc(S(N)(=O)=O)cc2Cl)nnc1C(F)(F)F |  | RT-Y188L | nucleotide incorporation / radiometric | >0.1 µM
CC(C)(C#Cc1ccc(NC(=O)CSc2nnnn2-c2ccc(C3CC3)cc2Cl)c(Cl)c1F)OCCO | WT |  | PicoGreen / fluorescence | <1 µM
CC1(C)CC[C@]2(C(=O)O[C@@H]3O[C@H](CO)[C@@H](O)[C@H](O)[C@H]3O)CC[C@]3(C)C(=CCC4[C@@]5(C)C[C@@H](O)[C@@H]6OC(=O)c7cc(O)c(O)c(O)c7-c7c(cc(O)c(O)c7O)C(=O)OC[C@@]6(CO)C5CC[C@]43C)C2C1 |  |  | nucleotide incorporation | >20 µg/mL